A mixed list of measured activities; the numbers were collected in NIAID ChemDB.

Common to all: whole-cell or culture tests

Blank or dashed fields: not listed here.

structure,species,strain or isolate,cells,read by,conditions,read-out,dose,result
Nc1nc2c(ncn2COC(CO)CO)c(=O)[nH]1,Squirrel monkey cytomegalovirus,-,SML,plaque count,-,EC50,-,1.3 µM
CCCCCCCCCCCCCCCCOCCCOP(=O)(O)CO[C@H](CO)Cn1ccc(N)nc1=O,Rat cytomegalovirus,-,MRC-5,plaque count,-,EC50,-,0.004 µM
N=c1c2ncn([C@@H]3O[C@H](COP(=O)(O)O)[C@@H](O)[C@@H]3O)c2ncn1O,Mouse cytomegalovirus,-,-,-,-,MIC,-,1–10 µg/mL
CCC[C@H](O)C[C@@H]1CC[C@H](C)CCCCC(=O)N(C)[C@@H](Cc2ccc(OCCO)cc2)C(=O)O1,Saccharomyces cerevisiae,ERG26,-,-,-,MIC,-,12.5 µg/mL
O=C(Nc1cc(C(F)(F)F)cc(C(F)(F)F)c1)Nc1cc(C(F)(F)F)cc(C(F)(F)F)c1,Escherichia coli,ES142,-,-,-,MIC,-,>300 µM
Cc1c(NC(=O)CCCNC(=O)OCc2ccccc2)ccc2nc(NC(C)(C)C(=O)N(C)CCc3ccccn3)oc(=O)c12,Herpes simplex virus 1,-,VERO,plaque count,-,EC90,-,>12.5 µM
O=C(NNC(=O)Nc1ccc(Cl)c(Cl)c1)Nc1ccc(Cl)c(Cl)c1,Escherichia coli,ES142,-,-,-,MIC,-,>314 µM
[N-]=[N+]=N[C@H]1[C@@H](F)[C@H](N2C=CC(N)NC2=O)O[C@@H]1CO,Reovirus,TYPE 1,VERO B,cytopathic effect,-,EC50,-,>400 µg/mL
CC(NCNc1ccc2ccccc2c1)C(=O)O,Influenza B virus,B/LEE,CEF,plaque count,-,inhibition,244 µg/mL,46.7%
S=c1cc(-c2ccccc2)s[nH]1,Encephalomyocarditis virus,Encephalomyocarditis virus,L929,plaque count,-,EC50,-,>90 µM
O=C(Nc1ccc(NC(=S)Nc2cc(C(F)(F)F)cc(C(F)(F)F)c2)cc1)c1csnn1,Simian cytomegalovirus,Colburn,HFF,virus yield,-,EC50,-,>20 µM
O=C(Nc1cc(C(F)(F)F)cc(C(F)(F)F)c1)NN(Cc1cccc(O)c1)C(=O)Nc1cc(C(F)(F)F)cc(C(F)(F)F)c1,Klebsiella pneumoniae,KL21,-,-,-,MIC,-,>300 µM
N=C(N)c1ncn([C@@H]2O[C@H](CO)[C@@H](O)[C@H]2O)n1,Pichinde virus,-,-,-,-,EC50,-,>100 µM
[N-]=[N+]=N[C@@H]1[C@H](O)[C@@H](CO)O[C@H]1n1cnc2c(=O)[nH]c(N)nc21,Vesicular stomatitis virus,-,PRK,cytopathic effect,-,EC50,-,>200 µg/mL
CSc1nsc(-c2cccc3ccccc23)c1C#N,Measles virus,Edmonston,HEP-2,plaque count,-,EC50,-,>4 µM
Cc1c(NC(=O)OC(C)(C)C)ccc2nc(N3CCC[C@H]3C(=O)N(C)CCc3ccncc3)oc(=O)c12,Herpes simplex virus 1,-,VERO,plaque count,-,EC90,-,>12.5 µM
Cc1cn([C@H]2O[C@H](CO)[C@@H](N=[N+]=[N-])[C@H]2F)c(=O)nc1N,Reovirus,TYPE 1,VERO B,cytopathic effect,-,EC50,-,>400 µg/mL
Cc1c(NC(=O)OC(C)(C)C)ccc2nc(N3CCCC[C@H]3C(=O)NCc3cccnc3)oc(=O)c12,Herpes simplex virus 1,-,VERO,plaque count,-,EC90,-,>12.5 µM
CC[C@H]1OC(=O)[C@H](C)[C@@H](OC2C[C@@](C)(OC)[C@@H](O)[C@H](C)O2)[C@H](C)[C@@H](OC2O[C@H](C)C[C@H](N(C)C)[C@H]2O)[C@](C)(OC2C[C@H](N)[C@H](O)[C@H](C)O2)C[C@@H](C)C(=O)[C@H](C)[C@@H](O)[C@]1(C)O,Plasmodium falciparum,W2 Mef,RBC,fluorescence,120 h,EC50,-,11.3 µM
CSc1nsc(-c2c(Cl)cccc2Cl)c1C#N,Encephalomyocarditis virus,Encephalomyocarditis virus,L929,plaque count,-,EC50,-,>5 µM
CC[C@H]1OC(=O)[C@H](C)[C@@H](OC2C[C@@](C)(OC)[C@@H](O)[C@H](C)O2)[C@H](C)[C@@H](OC2O[C@H](C)C[C@H](N(C)C)[C@H]2O)[C@](C)(OC2C[C@@H](N(C)C)[C@@H](O)[C@H](C)O2)C[C@@H](C)CN(C)[C@H](C)[C@@H](O)[C@]1(C)O,Plasmodium falciparum,3D7,RBC,fluorescence,48 h,EC50,-,1.6 µM
Nc1ncnc2c1ncn2[C@@H]1O[C@H](CO)[C@@H](O)[C@H]1N,Vesicular stomatitis virus,-,PRK,cytopathic effect,-,EC50,-,≥40 µg/mL
Cc1c(NC(=O)OC(C)(C)C)ccc2nc(N(CC(C)C)C(=O)NCc3cccnc3)oc(=O)c12,Herpes simplex virus 1,-,VERO,plaque count,-,EC90,-,>25 µM
Nc1nc2c(ncn2COC2COP(=O)(O)OC2)c(=O)[nH]1,Simian varicella-zoster virus,-,MRC-5,plaque count,-,EC50,-,2.3–4.7 µM
Cc1c(NC(=O)c2ccc(-c3ccccc3)cc2)ccc2nc(NC(C)(C)C(=O)N(C)CCc3ccccn3)oc(=O)c12,Herpes simplex virus 1,-,VERO,plaque count,-,EC90,-,0.7 µM
CSc1nsc(-c2ccc(Cl)cc2Cl)c1C#N,Encephalomyocarditis virus,Encephalomyocarditis virus,L929,plaque count,-,EC50,-,>8 µM
Nc1nc2c(ncn2[C@H]2C[C@H](O)[C@@H](CO)O2)c(=O)[nH]1,Vesicular stomatitis virus,-,PRK,cytopathic effect,-,EC50,-,>200 µg/mL
Nc1ccn(C[C@@H](CO)OCP(=O)(O)O)c(=O)n1,Guinea pig cytomegalovirus,-,MRC-5,plaque count,-,EC50,-,0.31 µM
[N-]=[N+]=N[C@H]1[C@H](O)[C@@H](CO)O[C@H]1n1cnc2c(N)ncnc21,Vesicular stomatitis virus,-,PRK,cytopathic effect,-,EC50,-,>200 µg/mL
CC[C@H]1OC(=O)[C@H](C)C(=O)[C@H](C)[C@@H](O[C@@H]2O[C@H](C)C[C@H](N(C)C)[C@H]2O)[C@](C)(OC)C[C@@H](C)C(=O)[C@H](C)[C@H]2N(CCCCn3cnc(-c4cccnc4)c3)C(=O)O[C@]12C,Haemophilus influenzae,25 strains,-,-,-,MIC90,-,8 µg/mL
Nc1ncccc1-c1cc(Cc2ccc(COc3ccccn3)cc2)no1,Candida guilliermondii,-,-,broth dilution,-,MIC50,-,<0.008 µg/mL
C=CCc1ccc(O)c(OC)c1,Candida tropicalis,2852,-,turbidity,-,MIC90,-,500 µg/mL
CCCCCCCCCCCCCCCCCCOCCCOP1(=O)CO[C@@H](Cn2ccc(N)nc2=O)CO1,Guinea pig cytomegalovirus,-,MRC-5,plaque count,-,EC50,-,0.001 µM
CCC(C)n1ncn(-c2ccc(N3CCN(c4ccc(OC[C@H]5CO[C@](Cn6cncn6)(c6ccc(Cl)cc6Cl)O5)cc4)CC3)cc2)c1=O,Candida guilliermondii,-,-,broth dilution,-,MIC50,-,0.25 µg/mL
Cc1c(NC(=O)c2ccco2)ccc2nc(NC(C)(C)C(=O)N(C)CCc3ccccn3)oc(=O)c12,Herpes simplex virus 1,-,VERO,plaque count,-,EC90,-,>12.5 µM

ECn: concentration that inhibits the pathogen or its effect by n%. Neighbouring rows are from separate reports. Inhibition is in % at the dose shown (toxicity tests: loss of growth or viability). A number after MIC or MFC names an inhibition level or a share of isolates. Two numbers with a dash give a range or band.